System: HIV-1 LTR
Assay: HIV-1 LTR driven CAT reporter expression in HUT 78
Assay type: cell-based
Conditions: not shown

hCG: human chorionic gonadotropin preparation, brand not stated at the place (or both Pregnyl and APL, 'PA')
response of constructs with point mutations in the enhancer (NFkB), SP-1 and TAR regions: essentially the same response

— patent publication US6699656B2, “Treatment and prevention of HIV infection by administration of derivatives of human chorionic gonadotropin” (University of Maryland Biotechnology Institute, priority 1996, dated 2004)
